Compound potency records, mixed from different reports. Data source: NIAID ChemDB in PubChem.

Common to all: whole-cell or culture tests; agent: HIV-1

Rows are shuffled and stem from different studies. Blank or dashed fields: not listed here. ECn: concentration that inhibits the pathogen or its effect by n%.

structure,method,measure,mutations,cells,setting,strain,value
Cc1cc(SC2=C(O)CC(CCc3cccc(O)c3)(C3CCCC3)OC2=O)c(C(C)(C)C)cc1CO,cytopathic effect / XTT,EC95,-,CEM,-,-,<0.3 µM
Cc1cc(C)cc(CC(N)C(=O)C(C)C)c1,cytopathic effect / MTT,EC50,-,MT-4,-,IIIB,32.77 µM
CCCCCCCCCCCCC(=O)O[C@@H]1[C@@H](C)[C@@]2(O)[C@@H](C=C(CO)C[C@]3(O)C(=O)C(C)=C[C@@H]23)[C@@H]2C(C)(C)[C@]12OC(=O)CCCCCCCCCCCC,p24 / ELISA,EC50,-,C8166,-,IIIB,18.67 µM
C[C@@H]1[C@H](O)[C@@H](C)/C=C/C=C/C=C/C=C/C=C/C=C/C=C/[C@H](O[C@@H]2O[C@H](C)[C@@H](O)[C@H](N)[C@@H]2O)CC2O[C@](O)(CC(O)C(O)CCC(O)CC(O)CC(O)CC(=O)O[C@H]1C)CC(O)C2C(=O)O.O=S(=O)(O)O,cytopathic effect,EC50,-,MT-4,-,KK-1,<7.8 µg/mL
Cc1cn([C@H]2C=C[C@@H](CO)O2)c(=O)[nH]c1=O,RT activity,EC50,-,CEM(TK-) + CEM TK-,-,-,2.3 µM
COc1ccc(CN=C2C=C(Cc3ccc4ccccc4c3)NS(=O)(=O)N2)cc1,MTT,EC50,-,MT-4,-,IIIB,>148 µM
N#Cc1ccc(Nc2nccc(Oc3cccc(C(=O)CC(=O)C(=O)O)c3)n2)cc1,MTT,EC50,-,MT-4,-,RES056,>9 µM
COc1ccc(NC2=NS(=O)(=O)NC(Cc3ccccc3)=C2)cc1,MTT,EC50,-,MT-4,-,IIIB,>318 µM
COC(=O)C(C)CNP(=O)(OC[C@@H]1CC[C@H](n2cc(C)c(=O)[nH]c2=O)O1)Oc1ccc(F)cc1,RT activity,EC50,-,PBMC,-,-,3.1 µM
Cc1cc(S(N)(=O)=O)ccc1NC(=O)COc1ccc(Cl)cc1C(=O)c1cc(Cl)cc(C#N)c1,β-galactosidase,EC50,RT-Y188C,MAGI,-,NNRTI-resistant (RT Y188C),0.00011 µM
CN(C)S(=O)(=O)N(C)C1CCn2c1nc(C(=O)NCc1ccc(F)cc1)c(O)c2=O,p24 / ELISA,EC95,-,MT-4,10% FBS,IIIB,>1 µM
Nc1ncnc2c1ncn2C1CC(CCP(=O)(O)O)(C(F)(F)F)CO1,RT activity,EC50,-,PBMC,-,LAI,36 µM
Cn1c2ccccc2c2c1cc(C#N)c(=O)n2-c1ccc([N+](=O)[O-])cc1,-,EC50,Remodeled TAMs (K70G V75T L228R K219R),MT-2,-,HXB2,9.4 µM
[N-]=[N+]=N[C@H]1C[C@H]2O[C@@H]1COc1nc(=O)ccn12,p24,EC50,-,CEM-F + CEM,-,-,4.95 µM
CCOCn1c(Cc2ccccc2)c(C(C)C)c(=O)[nH]c1=O,cytopathic effect / MTT,EC50,-,MT-4,-,IIIB,0.03 µM
O=S1(=O)N=C(Nc2ccc(Br)cc2)C=C(Cc2ccccc2)N1,MTT,EC50,-,MT-4,-,IIIB,>163 µM
Nc1ncnc2c1ncn2CCOCP(=O)(O)O,RT activity,EC50,-,PBMC,-,LAI,4.25 µM
CCc1[nH]c(=S)[nH]c1Cc1cc(C)cc(C)c1,cytopathic effect / MTT,EC50,-,MT-4,-,IIIB,4.46 µM
[N-]=[N+]=N[C@H]1C[C@H](n2cc(Br)c(=O)[nH]c2=O)O[C@@H]1CO,p24,EC50,-,CEM-F + CEM,-,-,8.73 µM
CCOC(=O)C(=O)CC(=O)c1ccc(Oc2ccnc(Nc3ccc(C#N)cc3)n2)cc1,MTT,EC50,F227L + V106A,MT-4,-,IIIB,>22 µM
[N-]=[N+]=N[C@H]1C[C@H]2O[C@@H]1COc1nc(=O)c(I)cn12,p24,EC50,-,CEM-F + CEM,-,-,27.1 µM
CC(=O)O[C@@H]1[C@@H](C)[C@@]2(O)[C@@H](C=C(CO)C[C@]3(O)C(=O)C(C)=C[C@@H]23)[C@@H]2C(C)(C)[C@]12OC(C)=O,p24 / ELISA,EC50,-,C8166,-,IIIB,0.3236 µM
Cc1cc(C)cc(Cc2[nH]c(=S)[nH]c2C(C)C)c1,cytopathic effect / MTT,EC50,-,MT-4,-,IIIB,0.62 µM
COC(=O)N[C@H](C(=O)N[C@@H](Cc1ccccc1)[C@@H](O)CN(Cc1ccc(-c2ccccn2)cc1)NC(=O)[C@@H](NC(=O)OC)C(C)(C)C)C(C)(C)C,p24 / luminescence,EC50,-,PBMC,-,97ZA003,0.003 µM
O=C(NCc1ccc(F)cc1)c1nc[nH]c(=O)c1O,p24 / ELISA,EC95,-,MT-4,10% FBS,IIIB,>10 µM
O=c1[nH]c(Br)nc2c1ncn2[C@H]1CC[C@@H](CO)O1,syncytia,EC50,-,MT-2,-,LAV,>20 µM
N#Cc1ccc(Nc2nccc(Oc3ccc(C(=O)CC(=O)C(=O)O)cc3)n2)cc1,MTT,EC50,K103N,MT-4,-,IIIB,>42 µM
Nc1nc(Cl)nc2c1ncn2[C@H]1CC[C@@H](CO)O1,syncytia,EC50,-,MT-2,-,LAV,10 µM
COC(=O)C(C)CNP(=O)(OC[C@@H]1CC[C@H](n2cc(C)c(=O)[nH]c2=O)O1)Oc1ccc(OC)cc1,RT activity,EC50,-,PBMC,-,-,1.3 µM
CC(C)CN(C[C@@H](O)[C@H](Cc1ccc(F)cc1)NC(=O)O[C@H]1CCO[C@H]2OCC[C@H]21)S(=O)(=O)c1ccc2nc(NC(C)C)sc2c1,p24 / luminescence,EC50,-,MT-4,-,NL4-3,0.0018 µM
[N-]=[N+]=N[C@H]1C[C@H]2O[C@@H]1COc1nc(=O)c(Br)cn12,p24,EC50,-,CEM-F + CEM,-,-,28 µM
COC(=O)C(C)CNP(=O)(OC[C@@H]1CC[C@H](n2cc(C)c(=O)[nH]c2=O)O1)Oc1ccc([N+](=O)[O-])cc1,RT activity,EC50,-,CEM(TK-) + CEM TK-,-,-,22.6 µM
Nc1nc(Br)nc2c1ncn2[C@H]1CC[C@@H](CO)O1,p24,EC50,-,CEM,-,LAV,1 µM
COc1ccccc1NC1=NS(=O)(=O)NC(Cc2cccc3ccccc23)=C1,MTT,EC50,-,MT-4,-,IIIB,>161 µM
CCCC(=O)OCC1=C[C@H]2[C@@H]3C(C)(C)[C@]3(OC(=O)CCC)[C@H](OC(=O)/C=C/c3ccc(OC)c(OC(C)=O)c3)[C@@H](C)[C@]2(O)[C@@H]2C=C(C)C(=O)[C@@]2(O)C1,p24 / ELISA,EC50,-,C8166,-,IIIB,293.2 µM
Cc1cn([C@H]2C[C@H](N=[N+]=[N-])[C@@H](CO)O2)c(=O)[nH]c1=O,syncytia,EC50,-,C8166,-,IIIB,0.13 µg/mL
O=C1CS(=O)(=O)OC12C1CC3CC(C1)CC2C3,-,EC50,-,-,-,-,>200 µg/mL

2 of the rows above, restated:

COc1ccc(CN=C2C=C(Cc3ccc4ccccc4c3)NS(=O)(=O)N2)cc1 ; method: MTT ; measure: EC50 ; cells: MT-4 ; strain: IIIB ; value: >148 µM
Cc1cc(C)cc(Cc2[nH]c(=S)[nH]c2C(C)C)c1 ; method: cytopathic effect / MTT ; measure: EC50 ; cells: MT-4 ; strain: IIIB ; value: 0.62 µM